Results of unrelated studies side by side (data: NIAID ChemDB).

Shared fields: growth or infection tests; organism: HIV-1; read by: syncytia; endpoint: EC50

ECn: concentration that inhibits the pathogen or its effect by n%. Conditions beyond the fields shown may differ between rows. An empty or dashed field is not shown.

SMILES	strain or isolate	cells	changes	value
CCc1c(Sc2cc(C)cc(C)c2)n(COCc2ccccc2)c(=O)[nH]c1=O	IIIB	CEM	RT-Y181I	0.11 µM
COC(=O)[C@H](C)NP(=O)(OC[C@@H]1C=C[C@H](n2cnc3c(=O)[nH]c(N)nc32)C1)Oc1ccccc1	IIIB	CEM		1.3 µM
CC(=O)OC[C@H]1O[C@@H](n2cc(C)c(-n3cncn3)nc2=O)C[C@@H]1N=[N+]=[N-]	IIIB Laboratory clade B	C8166		1.6 µM
CC1=C(C(=O)Nc2ccc(Cl)c(C(=O)OC(C)C)c2)SCCO1	IIIB	CEM		0.042 µM
CN(C)Cc1ccc(-n2cc(C(=O)O)c(=O)c3ccc(N4CCN(c5ccccn5)CC4)cc32)cc1		PBL		0.3 µM
CC(=O)OC[C@H]1O[C@@H](n2cc(C)c(-n3cncn3)nc2=O)C[C@@H]1OC(C)=O	IIIB Laboratory clade B	C8166		40 µM
Cc1cccc(N2CCN(c3cc4c(cc3F)c(=O)c(C(=O)O)cn4-c3ccc(Cn4cncn4)cc3)CC2C)c1		PBL		0.08 µM
C[C@H](CCC=C(c1cc(Cl)c(O)c(C(=O)O)c1)c1cc(Cl)c(O)c(C(=O)O)c1)[C@H]1CC[C@H]2[C@@H]3CC[C@@H]4CCCC[C@]4(C)[C@H]3CC[C@]12C	RF	CEM + CEM-SS		28 µM
CCc1c(Sc2cc(C)cc(C)c2)n(COCCO)c(=O)[nH]c1=O	IIIB	CEM	RT-Y181I	1.4 µM
COC(=O)[C@H](C)NP(=O)(OC[C@@H]1C=C[C@H](n2cnc3c(NC4CC4)nc(N)nc32)C1)Oc1ccccc1	IIIB	CEM		0.05 µM
Cc1cccn2c(C3SCCS3)cnc12	IIIB	CEM		>4 µM
O=C(O)c1cn(-c2ccc(CN3CCOCC3)cc2)c2c(Cl)c(N3CCN(c4ccccc4)CC3)c(F)cc2c1=O		PBL		0.015 µM
Cc1ccn2c(C3OCCS3)cnc2c1	IIIB	CEM		>20 µM
CC1CN(c2cc3c(cc2F)c(=O)c(C(=O)O)cn3-c2ccc(CN(C)C)cc2)CCN1c1ccccc1		PBL		0.002 µM
CCOCn1c(Cc2ccccc2)c(CC)c(=O)[nH]c1=O	IIIB	CEM	RT-Y188H	≥30 µM
CC(C)=CCOc1cc(NC(=S)c2ccoc2C)ccc1Cl	IIIB	CEM		0.009 µM
CCOCn1c(Sc2ccccc2)c(CC)c(=O)[nH]c1=S	IIIB	CEM		0.011 µM
O=C(O)c1cn(-c2ccc(Cn3cncn3)cc2)c2cc(N3CCN(c4ccc(Cl)c(Cl)c4)CC3)c(F)cc2c1=O		PBL		0.3 µM
CCOCn1c(Sc2ccccc2)c(CC)c(=O)[nH]c1=O	IIIB	CEM		0.006 µM
CC1CN(c2cc3c(cc2F)c(=O)c(C(=O)O)cn3-c2ccc(Cn3cncn3)cc2)CCN1c1ccccc1		PBL		0.2 µM
COc1ccccc1N1CCN(c2c(F)cc3c(=O)c(C(=O)O)cn(-c4ccc(CN5CCOCC5)cc4)c3c2Cl)CC1		PBL		0.03 µM
COc1ccc(S(=O)(=O)Oc2ccc(N=Nc3ccc(N=Nc4ccc(OS(=O)(=O)c5ccc(OC)cc5)c5ncccc45)cc3)c3cccnc23)cc1	IIIB	C8166		3.51 µg/mL
CC(C)c1c(Sc2ccccc2)n(COCCO)c(=S)[nH]c1=O	IIIB	CEM	RT-Y181C	6 µM
Cc1ccn2c(C3SCCS3)cnc2c1	IIIB	CEM		>4 µM
O=c1nc(Oc2c(F)c(F)c(F)c(F)c2F)ccn1[C@H]1C[C@H](O)[C@@H](CO)O1	IIIB Laboratory clade B	C8166		400 µM
CCc1c(-c2coc(CC/C(C)=C/c3ccccc3)n2)oc(OC)c(C)c1=O	IIIB	MOLT-4/IIIB + MOLT-4		>102 µM
Oc1ccc(N=Nc2ccc(N=Nc3ccc(O)c4ncccc34)cc2)c2cccnc12	IIIB	C8166		0.45 µg/mL
CCc1c(Cc2cc(C)cc(C)c2)n(COCCO)c(=O)[nH]c1=O	IIIB	CEM	Nevirapine resistant (RT Y181C)	1.5 µM
O=c1nc(Oc2c(F)c(F)c(F)c(F)c2F)ccn1[C@@H]1O[C@H](CO)[C@@H](O)[C@H]1O	IIIB Laboratory clade B	C8166		1.6 µM
CC(C)CCC[C@@H](C)[C@H]1CC[C@H]2[C@@H]3CC[C@H]4C[C@@H](CCC=C(c5cc(Cl)c(O)c(C(=O)O)c5)c5cc(Cl)c(O)c(C(=O)O)c5)CC[C@]4(C)[C@H]3CC[C@]12C	RF	CEM + CEM-SS		5.1 µM
O=[N+]([O-])c1cc(S(=O)(=O)Oc2ccc(N=Nc3ccc(N=Nc4ccc(OS(=O)(=O)c5ccc(Cl)c([N+](=O)[O-])c5)c5ncccc45)cc3)c3cccnc23)ccc1Cl	IIIB	C8166		2.69 µg/mL
O=C(Nc1ccc(Cl)c(C(=O)OC2CCCCC2)c1)c1ccccc1F	IIIB	CEM	RT-D138K	4 µg/mL
CC(=O)OC[C@H]1O[C@@H](n2cc(C)c(Oc3c(F)c(F)c(F)c(F)c3F)nc2=O)C[C@@H]1OC(C)=O	IIIB Laboratory clade B	C8166		>80 µM
Cc1ccn2c(C(SCCc3ccccc3)SCCc3ccccc3)cnc2c1	IIIB	CEM		>4 µM
Cc1ccc(S(=O)(=O)Oc2ccc(N=Nc3ccc(N=Nc4ccc(OS(=O)(=O)c5ccc(C)cc5)c5ncccc45)cc3)c3cccnc23)cc1	IIIB	C8166		13.4 µg/mL
CCc1c(Sc2cc(C)cc(C)c2)n(COCCO)c(=S)[nH]c1=O	IIIB	CEM		0.004 µM

For reference, 3 entries again:

SMILES | strain or isolate | cells | changes | value
CC(C)CCC[C@@H](C)[C@H]1CC[C@H]2[C@@H]3CC[C@H]4C[C@@H](CCC=C(c5cc(Cl)c(O)c(C(=O)O)c5)c5cc(Cl)c(O)c(C(=O)O)c5)CC[C@]4(C)[C@H]3CC[C@]12C | RF | CEM + CEM-SS |  | 5.1 µM
Cc1ccn2c(C(SCCc3ccccc3)SCCc3ccccc3)cnc2c1 | IIIB | CEM |  | >4 µM
COC(=O)[C@H](C)NP(=O)(OC[C@@H]1C=C[C@H](n2cnc3c(=O)[nH]c(N)nc32)C1)Oc1ccccc1 | IIIB | CEM |  | 1.3 µM